Test results from PubChem BioAssay AID2629 (Broad Institute, 2010).
This is a selection; strong and weak results do not stand in their true shares. Activity calls are given as the source filed them. Cut-off read from the data, not from the text of the source: active = inhibition mostly above about 10% (no sharp cut-off); inactive = mostly below about 6.7%.

By UniProt entry, the sequences of proteins in these tests, tags left out.
UniProt Q9QR71, whole entry: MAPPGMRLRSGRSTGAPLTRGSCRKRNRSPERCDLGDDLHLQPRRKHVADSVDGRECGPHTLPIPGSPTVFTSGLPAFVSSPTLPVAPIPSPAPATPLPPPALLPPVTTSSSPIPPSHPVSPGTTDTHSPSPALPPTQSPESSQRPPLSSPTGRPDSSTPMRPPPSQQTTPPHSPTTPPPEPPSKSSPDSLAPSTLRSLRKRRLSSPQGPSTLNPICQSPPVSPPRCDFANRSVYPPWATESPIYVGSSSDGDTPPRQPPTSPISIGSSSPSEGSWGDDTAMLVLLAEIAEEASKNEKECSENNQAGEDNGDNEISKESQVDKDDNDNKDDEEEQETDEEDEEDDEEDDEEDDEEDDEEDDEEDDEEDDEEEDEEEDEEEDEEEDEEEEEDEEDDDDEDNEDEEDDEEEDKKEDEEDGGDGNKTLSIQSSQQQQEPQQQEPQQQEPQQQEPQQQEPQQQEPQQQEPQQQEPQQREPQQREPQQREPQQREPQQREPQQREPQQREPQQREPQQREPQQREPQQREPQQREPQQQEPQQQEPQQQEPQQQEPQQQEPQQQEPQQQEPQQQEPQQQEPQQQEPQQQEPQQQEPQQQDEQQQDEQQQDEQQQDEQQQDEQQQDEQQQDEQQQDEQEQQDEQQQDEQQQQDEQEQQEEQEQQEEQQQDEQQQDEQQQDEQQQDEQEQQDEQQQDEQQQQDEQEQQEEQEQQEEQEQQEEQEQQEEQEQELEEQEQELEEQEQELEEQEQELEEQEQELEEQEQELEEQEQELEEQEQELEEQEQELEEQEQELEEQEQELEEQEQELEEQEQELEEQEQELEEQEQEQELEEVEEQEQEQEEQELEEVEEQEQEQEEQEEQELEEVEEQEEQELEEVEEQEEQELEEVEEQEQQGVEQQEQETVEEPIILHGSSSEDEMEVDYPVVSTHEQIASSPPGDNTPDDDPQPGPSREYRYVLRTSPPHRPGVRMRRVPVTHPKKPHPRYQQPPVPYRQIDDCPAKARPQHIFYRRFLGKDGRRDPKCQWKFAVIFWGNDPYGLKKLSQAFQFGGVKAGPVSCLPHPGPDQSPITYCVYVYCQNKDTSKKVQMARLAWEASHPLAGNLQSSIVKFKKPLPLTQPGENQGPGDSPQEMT

molecular target: Protein LANA1 (Human herpesvirus 8 type P (isolate GK18)) (UniProt Q9QR71); experiment: blockers of LANA interaction with H2A/H2B – biochemical, FP readout, HTS, primary screen (AID 2629); conditions: cell-free LANA-H2A/H2B peptide, fluorescence polarization; hits give high values; concentration not given here

SMILES	inhibition
C[As](=O)(O)c1cccc(C(=O)O)c1	inactive: 0.413%
O=[As](O)(c1ccc(O)cc1)c1ccccc1O	inactive: 5.96%
COc1cc(C(=O)NCC2(N3CCOCC3)CCCCC2)ccc1OCC(C)C	inactive: -0.769%
Cc1ccc(OP(=O)(Nc2ccc([N+](=O)[O-])cn2)Oc2ccc(C)cc2)cc1	inactive: -0.0967%
CC(C)(C)c1ccc(OP(C)(=O)Nc2ccc(SC(F)(F)F)cc2)cc1 (stereo not drawn)	inactive: -2.05%
O=[N+]([O-])c1ccc2c(c1)C=Nc1ccccc1O2	inactive: 4.02%
Cc1ccc2nc3c(c(C)c2c1)CC(C(Cl)Cl)S3 (stereo not drawn)	inactive: 1.51%
CCOC(=O)c1ccc(NP(C)(=O)Oc2ccccc2)cc1 (stereo not drawn)	inactive: -2.77%
ClCCSc1nnc(-c2cccnc2)o1	inactive: 1.56%
COc1ccccc1OP(C)(=O)Nc1ccc(C)cc1 (stereo not drawn)	inactive: 1.93%
CC(C)c1ccc(OP(=O)(Nc2ccccn2)Oc2ccccc2F)cc1 (stereo not drawn)	inactive: -14.2%
Cc1ccc(NP(C)(=O)Oc2ccccc2)c(C)c1 (stereo not drawn)	inactive: 8.81%
CC(C)NC(=O)NP(=O)(Oc1ccccc1)Oc1ccccc1	inactive: 0.177%
COc1ccccc1OP(C)(=O)Nc1cc(Cl)ccc1C (stereo not drawn)	inactive: 2.15%
CCN(CC)C(=S)SC(NC=O)C(Cl)(Cl)Cl (stereo not drawn)	inactive: -4.19%
COc1ccc(OP(C)(=O)Nc2cccc(F)c2)cc1 (stereo not drawn)	inactive: 3.55%
O=[N+]([O-])c1cc([N+](=O)[O-])c(-c2ccn[nH]2)s1	inactive: -0.476%
Cc1cc(C)cc(OP(C)(N)=O)c1 (stereo not drawn)	inactive: 1.09%
Cc1c2c(nc3ccccc13)SC(C(Cl)Cl)C2 (stereo not drawn)	inactive: 5.96%
O=C(OC1CN2CCC1CC2)C12CC3CC(CC(C3)C1)C2 (stereo not drawn)	inactive: 2.83%
CCN(CC)CCCOC(=O)C(O)(c1ccccc1)c1ccccc1	inactive: 0.642%
Cc1cc(=O)[nH]c(N[N+](=O)[O-])n1	inactive: 1.69%
COc1ccc2nc(NP(=O)(c3ccccc3)c3ccccc3)sc2c1	inactive: -0.216%
COc1cc(I)ccc1[As](=O)(O)O	inactive: -1.56%

SMILES	inhibition
COc1ccc(N/C(=N/P(=O)(N2CCOCC2)N2CCOCC2)N2CCOCC2)cc1	inactive: 2.33%
O=C(OC1CN2CCC1CC2)c1ccc(Cl)cc1 (stereo not drawn)	inactive: 3.8%
O=[As](O)(O)c1cccnc1	inactive: -6.06%
COc1cc(C(=O)NCC2(N3CCOCC3)CCCCC2)cc(Cl)c1OC(C)C	inactive: -0.678%
CS(=O)(=O)c1ccc(Cl)c(NC(=O)COC(=O)C(O)(c2ccccc2)c2ccccc2)c1	inactive: 1.42%
COc1ccccc1OP(C)(=O)Nc1cccc(Br)c1 (stereo not drawn)	inactive: 7.57%
Cc1cccc(OCC(=O)OC2CN3CCC2CC3)c1 (stereo not drawn)	inactive: -1.93%
O=[As](O)(c1cccc(O)c1)c1cccc(O)c1	inactive: -1.49%
Cc1cc(C)cc(OP(C)(=O)Nc2ccc(C)cc2C)c1 (stereo not drawn)	inactive: -6.23%
CCOC(=O)c1ccc(NP(C)(=O)Oc2cc(C)cc(C)c2)cc1 (stereo not drawn)	inactive: -3.89%
Cc1cc(C)cc(OP(C)(=O)Nc2ccccn2)c1 (stereo not drawn)	inactive: 3.2%
CP(=O)(Nc1cccc(Br)c1)Oc1ccccc1 (stereo not drawn)	inactive: -4.65%
Nc1cccc2c([As](=O)(O)O)cccc12	inactive: -5.44%
Cc1ccc(NCCc2c([N+](=O)[O-])cc([N+](=O)[O-])cc2[N+](=O)[O-])cc1	inactive: 4.15%
Cc1ccc(C)c(NP(C)(=O)Oc2ccccc2)c1 (stereo not drawn)	inactive: -1.92%
CCCOP(=S)(Nc1nc(N)cc(=O)[nH]1)OCCC	inactive: -2.25%
CCOP(=O)(Nc1cccc2ccccc12)OCC	inactive: 2.17%
O=C(O)c1cccc(Nc2c([N+](=O)[O-])cc([N+](=O)[O-])cc2[N+](=O)[O-])c1	inactive: -2.52%
CCOP1(=S)c2c(C)nn(CCC#N)c2N=C(c2ccccc2F)N1C (stereo not drawn)	inactive: -2.86%
O=P(Nc1nccs1)(Oc1ccccc1)Oc1ccccc1	inactive: -2.47%
O=P(Nc1nccs1)(c1ccccc1)c1nc2ccccc2s1 (stereo not drawn)	inactive: -8.38%
CS(=O)(=O)c1cc([N+](=O)[O-])c2no[n+]([O-])c2c1	inactive: 18.8%
O=C(O)COc1ccc([As](=O)(O)O)cc1[N+](=O)[O-]	inactive: 7.85%
Nc1ccccc1[As](=O)(O)c1ccccc1	inactive: 6.73%

SMILES	inhibition
NC(=O)Nc1ccc([As](=O)(O)O)cc1	inactive: -4.59%
N#CCCN(C(=O)COC(=O)C(O)(c1ccccc1)c1ccccc1)c1ccc(F)cc1	inactive: 0.449%
CN(C(=O)Cc1ccccc1)[C@@H]1CC[C@]2(CCCO2)C[C@H]1N1CCCC1	inactive: 1.71%
CCOP1(=S)c2c(C)nn(CCC#N)c2N=C(c2ccc(F)cc2)N1C (stereo not drawn)	inactive: -3.4%
O=[N+]([O-])c1ccc2c(c1)nnn2O	inactive: -0.375%
CN(C)C(=O)c1cc([N+](=O)[O-])cc2c1-c1c(cc([N+](=O)[O-])cc1[N+](=O)[O-])C2=O	inactive: 4.61%
CC1=NCCc2c1[nH]c1ccccc21.O=[N+]([O-])c1cc([N+](=O)[O-])c(O)c([N+](=O)[O-])c1	inactive: 0.561%
CN(C(=O)Cc1ccc(Cl)c(Cl)c1)[C@H]1CC[C@@]2(CCCO2)C[C@@H]1N1CCCC1	inactive: -1.71%
Cc1nn(-c2ccccc2)c2c1P(=O)(N1CCOCC1)N(C)C(c1ccccc1)=N2 (stereo not drawn)	inactive: 6.31%
Cc1ccc(C(=O)OC2CN3CCC2CC3)cc1 (stereo not drawn)	inactive: -3.26%
CC1CCC(C(C)C)C(OP(=O)(Nc2ccccn2)c2ccccc2)C1 (stereo not drawn)	inactive: -0.163%
COc1cc(C2NCCC3(OCCO3)C2(C)C)cc(OC)c1OC.O=[N+]([O-])c1cc([N+](=O)[O-])c(O)c([N+](=O)[O-])c1 (stereo not drawn)	inactive: -3.33%
CC1=C2N=C(C=C3N=C(C(C)=C4[N-][C@@](C)([C@@H]5N=C1[C@](C)(CCC(=O)NC[C@@H](C)OP(=O)([O-])O[C@H]1[C@@H](O)[C@@H](n6cnc7cc(C)c(C)cc76)O[C@@H]1CO)[C@H]5CC(N)=O)[C@@](C)(CC(N)=O)[C@@H]4CCC(N)=O)[C@@](C)(CC(N)=O)[C@@H]3CCC(N)=O)C(C)(C)[C@@H]2CCC(N)=O.[C-]#N.[Co+3]	inactive: -3.01%
CN(C)C1(CNC(=O)c2ccc(S(C)(=O)=O)cc2)CCCCC1	inactive: 1.1%
O=[N+]([O-])c1cc([N+](=O)[O-])c(Nc2nnnn2CCO)c([N+](=O)[O-])c1	inactive: -1.1%
CCOC(=O)C(CC)C1=NC(C)(C)Cc2ccccc21.O=[N+]([O-])c1cc([N+](=O)[O-])c(O)c([N+](=O)[O-])c1 (stereo not drawn)	inactive: 0.245%
O=C(/C=C/c1ccccc1)OC1CN2CCC1CC2 (stereo not drawn)	inactive: 1.51%
CN1CCCCC1COC(=O)C1(O)c2ccccc2CCc2ccccc21 (stereo not drawn)	inactive: 5.71%
COc1ccccc1OP(C)(=O)Nc1c(C)cccc1C (stereo not drawn)	inactive: -3.04%
O=P1(Nc2ncccn2)COc2ccccc2OC1	inactive: -2.63%
CCCOc1ccc(NP(C)(=O)Oc2ccc(Cl)cc2)cc1 (stereo not drawn)	inactive: 5.08%
Nc1cccc([As](=O)(O)c2ccccc2)c1	inactive: 3.74%
CP(=O)(Nc1ccc(SC(F)(F)F)cc1)Oc1ccccc1 (stereo not drawn)	inactive: 1.26%
O=[As](O)(c1cccs1)c1cccs1	inactive: 3.41%

SMILES	inhibition
Cc1ccc(OCC(=O)OC2CN3CCC2CC3)cc1 (stereo not drawn)	inactive: 0.0209%
NS(=O)(=O)c1cccc(NC(=O)COC(=O)C(O)(c2ccccc2)c2ccccc2)c1	inactive: 3.35%
O=P1(Nc2ccc(Br)cn2)COc2ccccc2OC1	inactive: -1.39%
CCC1=CC2Cc3nc4ccc(Cl)cc4c(N)c3C(C1)C2 (stereo not drawn)	inactive: 0.435%
O=P1(Nc2ccccn2)COc2ccccc2OC1	inactive: -0.0239%
O=[N+]([O-])c1cc([N+](=O)[O-])c(-n2nnc3ccccc32)c([N+](=O)[O-])c1	inactive: 2.33%
CCOP(=O)(NC(=NC(C)c1ccccc1)NC(C)c1ccccc1)OCC (stereo not drawn)	inactive: 4.02%
CCOP(=O)(Nc1ccc(C)cn1)OCC	inactive: -3.05%
CN(CCCl)Cc1cc(Cl)c(NC2=NCCN2)c(Cl)c1	inactive: 2.92%
Clc1n[nH]nc1-c1nn[nH][15n]1	inactive: 3.49%
CC(C)(C)C(=O)NC(Sc1ncccn1)C(Cl)(Cl)Cl (stereo not drawn)	inactive: -0.0355%
O=[N+]([O-])c1cc([N+](=O)[O-])c(-c2cnn(-c3ccccc3)c2)c([N+](=O)[O-])c1	inactive: 1.44%
COc1ccccc1CNC(=O)COC(=O)C(O)(c1ccccc1)c1ccccc1	inactive: -4.37%
CN(C(=O)Cc1ccc(Cl)c(Cl)c1)[C@@H]1CCCC[C@H]1N1CCCC1	inactive: 5.21%
CC(C)/C=N\N=C(\N)N[N+](=O)[O-]	inactive: 5.15%
O=[As](O)(c1ccccc1Br)c1ccccc1Br	inactive: 0.00228%
Cc1nc2ccc3ccccc3c2s1.O=[N+]([O-])c1cc([N+](=O)[O-])c(O)c([N+](=O)[O-])c1	inactive: -0.842%
CC1(CBr)Cn2c(nc3ccccc3c2=O)S1 (stereo not drawn)	inactive: -4.03%
O=P(Nc1nccs1)(c1ccccc1)c1ccccc1	inactive: 0.526%
CC(C)C(=O)NC(Sc1ccccc1)C(Cl)(Cl)Cl (stereo not drawn)	inactive: 6.46%
CP(=O)(Nc1ccc(SC(F)(F)F)cc1)Oc1ccc(F)cc1 (stereo not drawn)	inactive: -1.13%
